Molecular target: recombinant full-length NiV-C (6XHis-HA-NiV-C) (Nipah virus, UniProt Q997F1 1-166)
Test: co-IP

B1: recombinant FLAG-EGFP-Tsg101-CTD (6XHis-tagged, EGFP A206K) (domain or fragment)
chain: EKMENQSENNDIDEVIIPTAPLYKQILNLYAEENAIEDTIFYLGEALRRGVIDLDVFLKHVRLLSRKQFQLRALMQKARKTAGLSDLY
notes: also called EGFP-Tsg101-CTD fusion; source: E. coli BL21(DE3), purified (HisTrap HP)
Question: Does B1 bind?
Answer: Result: binds
